{"source": "PubChem BioAssay AID1224853", "about": "(National Center for Advancing Translational Sciences (NCATS), 2016)", "test": "Confirmation assay for measurement of the activity of small molecule inhibitors on Zika virus induced Caspase-3 activity in human astrocytoma cells", "conditions": "SNB-19 ZIKV-induced caspase-3/7, luminescence, 6 h; series mostly up to 46.1 µM", "text": "National Center for Advancing Translational Sciences [NCATS] Johns Hopkins University School of Medicine Florida State University Assay Overview: Increase in the Caspase-3 activity indicates an activation of apoptosis cell death pathway caused by Zika virus infection in certain types of neuronal cells including human neural progenitor cells (hNPCs), astrocytes, and astrocytoma cell line (SNB-19). This cell-based caspase-3 activity assay measures the increased caspase-3 activity in the astrocytoma cell line (SNB-19) after a 6-hour Zika virus infection with a luminescence readout. A decrease in the luminescence signal in this assay by small molecule treatment indicates an inhibitory effect of that small molecule on the Zika virus induced caspase-3 activity that may correlate with its effect on reduction of Zika virus caused cell death.\nAssay Protocol Summary: The medium for SNB-19 cells is composed of RPMI 1640 (ATCC, Cat.# 30-2001), 10% fetal bovine serum (FBS) (GE healthcare Life Sciences, Cat.# SH30071.03), and 1% Pen/Strep (Gibco, Cat.# 15140-122). […] The luminescence intensity of the assay plates was measured using a ViewLux plate reader (PerkinElmer). […] The percentage inhibitions of the increased Caspase-3 activity by small molecule inhibitors were then calculated.", "note": "This is a selection; strong and weak results do not stand in their true shares. Records with an inconclusive call do not appear. A call without a number means that no potency is given here. The source made the active and inactive calls. Calls follow the shape of the dose curve; as a rule, active = well fitted inhibition curve with a large enough effect; inconclusive = small, poorly fitted or top-dose-only effect; inactive = no such curve, though single readings can be large or run the other way.", "data": [{"molecule": "C/C1=C2N=C(/C=C3N=C(/C(C)=C4\\[N-][C@@](C)([C@@H]5N=C1[C@](C)(CCC(=O)NC[C@@H](C)OP(=O)([O-])O[C@H]1[C@@H](O)[C@@H](n6cnc7cc(C)c(C)cc76)O[C@@H]1CO)[C@H]5CC(N)=O)[C@@](C)(CC(N)=O)[C@@H]4CCC(N)=O)[C@@](C)(CC(N)=O)[C@@H]\\3CCC(N)=O)C(C)(C)[C@@H]/2CCC(N)=O.[C-]#N.[Co+3]", "values": [{"measurement": "Potency", "result": "active: 8.69 µM"}]}, {"molecule": "CCOP(=O)(CC)Oc1ccc([N+](=O)[O-])cc1", "note": "(configuration not stated)", "values": [{"measurement": "Potency", "result": "inactive"}]}]}
